{"source": "paper PMC9139002", "about": "“Naphthoquinone as a New Chemical Scaffold for Leishmanicidal Inhibitors of Leishmania GSK-3” (Biomedicines, 2022)"}
{"tested_on": "mouse peritoneal macrophages (MPM)", "test": "Cytotoxicity on mouse peritoneal macrophages (MTT reduction)", "format": "cell-based", "details": "IC50 MPM/IC50 axenic amastigotes", "description": "Leishmania parasites were collected at late exponential growth phase by centrifugation at 1610× g at 4 °C. Elicited mouse peritoneal macrophages (MPM) were obtained from 8-week-old Balb/c mice through i.p. injection with 1 mL of 10% thioglycolate medium 72 h before extraction. Macrophages were obtained by peritoneal washing (10 mL PBS, 4 °C).\nBoth activities were assessed by inhibition of MTT (3-(4,5-dimethylthiazol-2-yl)-2,5-diphenyltetrazolium bromide) reduction, as described in [34]. Samples were made in triplicate and assays were repeated at least twice. DMSO content in the medium was adjusted to 0.25% v/v (final concentration), regardless of the final concentration of the drug, and for the control, the untreated parasites. ICx (inhibitory concentration that inhibits parasite growth or enzymatic activity by x%) was calculated using the statistical module of SigmaPlot v11.0 software."}
{"substance": "N-(1,4-Naphthoquinone-2-yl)propionamide [Compound 19]", "Selectivity Index (SI)": 2.4}
{"substance": "N-(1,4-Naphthoquinone-2-yl)acetamide [Compound 18]", "Selectivity Index (SI)": 3.3}
{"substance": "N-(1,4-Naphthoquinone-2-yl) phenylacetamide [Compound 20]", "Selectivity Index (SI)": 2.3}
